Results of unrelated studies side by side (data: NIAID ChemDB).

Shared fields: growth or infection tests; species: Mycobacterium tuberculosis

MIC bound: limit read from a one-dose screen. Inhibition is in % at the dose shown (toxicity tests: loss of growth or viability). ECn: concentration that inhibits the pathogen or its effect by n%. Blank or dashed fields: not listed here. A number after MIC or MFC names an inhibition level or a share of isolates. Neighbouring rows are from separate reports.

compound	strain or isolate	method	endpoint	dose	result
CC(=O)O[C@@]12C[C@@H](C)[C@@]3(O)[C@@H](C=C(CO)C[C@]4(O)C(=O)C(C)=C[C@@H]34)[C@@H]1C2(C)C	H37Rv	resazurin	inhibition	6.25 µg/mL	12%
CCC(CC)NCCNC[C@]1(C)CCC[C@]2(C)c3ccc(C(C)C)cc3CC[C@@H]12	-	-	MIC	-	25 µM
N#CNNC(=O)c1ccccc1	-	-	MIC	-	>40 µg/mL
NC1=NNC2(C(=O)N1)c1ccccc1-c1ccccc12	H37Rv	BACTEC	MIC bound	-	≤12.5 µg/mL
c1ccc(C(CNCCNCC(c2ccccc2)c2ccccc2)c2ccccc2)cc1	-	-	MIC	-	37.5 µM
NC(=O)c1cnccn1	Isolate 10274	-	MIC	-	100 µg/mL
CCOC(=O)c1cc(C)n(-c2ccc(-c3ccc(-n4c(C)cc(C(=O)OCC)c4C)c(C)c3)cc2C)c1C	H37Rv	-	MIC	-	>100 µg/mL
CO[C@H]1/C=C/O[C@@]2(C)Oc3c(C)c(O)c4c(O)c(c(/C=N/N5CCN(C/C=C/c6ccccc6)CC5)c(O)c4c3C2=O)NC(=O)/C(C)=C\C=C\[C@H](C)[C@H](O)[C@@H](C)[C@@H](O)[C@@H](C)[C@H](OC(C)=O)[C@@H]1C	2983 (rifampin-sensitive)	-	MBC	-	0.1 µg/mL
O=C(/C=C/c1ccccc1)c1cc(-c2ccccc2)ccc1O	-	-	inhibition	12.5 µg/mL	68%
Cc1ccc(S(=O)(=O)Nc2nn[nH]n2)cc1	H37Rv	-	MIC	-	>100 µg/mL
O=C[C@@H](O)[C@@H](O)[C@H](O)[C@H](O)CO	H37Rv	resazurin	inhibition	6.25 µg/mL	15%
NC1CCN(c2nc3c(cc2F)c(=O)c(C(=O)O)cn3-c2ccc(F)cc2F)C1	ATCC 35822	-	MBC	-	>8 µg/mL
O=C1OCc2c1cc1ccc(O)c(OC3OC(CO)C(O)C(O)C3O)c1c2-c1ccc2c(c1)OCO2	H37Rv	BACTEC	MIC bound	-	>12.5 µg/mL
c1ccc(C(CNCCNC2CCCCCCC2)c2ccccc2)cc1	-	-	MIC	-	3.13 µM
CO[C@H]1/C=C/O[C@@]2(C)Oc3c(C)c(O)c4c(=O)c(c5oc6cc(N7CCN(C(C)C)CC7)cc(=O)c6nc5c4c3=C2O)NC(=O)/C(C)=C\C=C\[C@H](C)[C@H](O)[C@@H](C)[C@@H](O)[C@@H](C)[C@H](OC(C)=O)[C@@H]1C	31 (rifampin-resistant)	-	MIC	-	0.2 µg/mL
CCCCC(=O)C(C)Nc1cc(NC(=O)OCC)nc(N)c1[N+](=O)[O-]	H37Rv	-	EC50	-	>12.5 µg/mL
CCOC(=O)c1csc(CCCOc2ccccc2)c1N.Cl	H37Rv	-	MIC	-	>100 µg/mL
O=c1oc2ccccc2c(=O)n1-c1cccc(F)c1	CNCTC MY331/88	-	MIC	-	31 µM
CCOC(=O)N(c1ccccc1)c1cc(Cl)c([N+](=O)[O-])c(N)n1	H37Rv	-	inhibition	12.5 µg/mL	0%
CCOC(=O)c1c(C)[nH]c(C)cc1=O	H37Rv	-	MIC	-	>100 µg/mL
CN(C)c1ccc(/C=C/C(=O)c2ccccn2)cc1	H37Rv	-	inhibition	12.5 µg/mL	16%
CO[C@H]1/C=C/O[C@@]2(C)Oc3c(C)c(O)c4c(=O)c(c5oc6cc(N7CCN(CC(C)C)CC7)cc(=O)c6nc5c4c3=C2O)NC(=O)/C(C)=C\C=C\[C@H](C)[C@H](O)[C@@H](C)[C@@H](O)[C@@H](C)[C@H](OC(C)=O)[C@@H]1C	TN3806	-	MIC	-	>32 µg/mL
O=C1OC2(O)c3ccccc3C(=O)N2N2CCCC12	H37Rv	resazurin	inhibition	6.25 µg/mL	8%
Cc1ccccc1C(C(=O)O)(c1ccccc1)c1ccccc1	H37Rv	-	MIC	-	>100 µg/mL
CC(=O)NNS(=O)(=O)c1ccc(NC(C)=O)cc1	-	-	MIC	-	>200 µg/mL
CCOC(=O)Nc1cc(NC/C(=C\O)c2ccc(OC)c(OC)c2OC)c([N+](=O)[O-])c(N)n1	H37Rv	-	EC50	-	>12.5 µg/mL
CC(C)=CCC/C(C)=C/CNCCNC1CCCCCCC1	-	-	MIC	-	25 µM
C[C@H]1C[C@H](N)CN1c1cc2c(cc1F)c(=O)c(C(=O)O)cn2-c1ccc(F)cc1F	MDR	-	MIC50	-	>8 µg/mL
O=C(NNS(=O)(=O)c1ccc(Cl)cc1)c1ccccc1	-	-	MIC	-	200 µg/mL
C=CCN(CCNC(C)Cc1ccc(Cl)cc1)C1CCCC1	-	-	MIC	-	50 µM
CN(C)CNC(=S)S	PAS-R	-	MIC	-	3.1 µg/mL
Cl.Nc1cc(O)cc(O)c1	H37Rv	-	MIC	-	100 µg/mL
CCCCCCCCC/C=N/Nc1ccc([N+](=O)[O-])cn1	H37Rv	BACTEC	MIC bound	-	≤12.5 µg/mL
Nc1cnccc1C(=O)O	H37Rv	-	MIC	-	100 µg/mL
CCCCC(CC)CN1CN(CC(CC)CCCC)CC(C)(NCCNCC2(O)CCCCC2)C1	-	-	MIC	-	6.25 µM
CCOC(=O)Nc1cc(NCC(=O)CN(C)c2ccc(C(=O)OC)cc2)c([N+](=O)[O-])c(N)n1	H37Rv	-	inhibition	12.5 µg/mL	0%
O=C(/C=C/c1ccccn1)c1ccccn1	-	-	EC50	-	>12.5 µg/mL
Clc1cc2ns[s+]c2cc1Cl.[Cl-]	H37Rv	BACTEC	inhibition	6.25 µg/mL	99%
COc1ccc(-c2cc(=O)c3c(OC)cc(OC)c([C@H]4C(=O)c5c(OC)cc(OC)cc5O[C@@H]4c4ccc(OC)cc4)c3o2)cc1	-	-	EC50	-	<12.5 µg/mL
CC(=O)OC[C@H]1O[C@@H](c2cccc3c2c2ccccc2n3S(=O)(=O)c2ccccc2)[C@H](O)[C@@H]1O	H37Rv	BACTEC	inhibition	12.5 µg/mL	59%
NC(=O)N/N=C/c1ccc([N+](=O)[O-])o1	H37Rv	-	MIC	-	>100 µg/mL
CC[C@H]1OC(=O)[C@H](C)[C@@H](O[C@H]2C[C@@](C)(OC)[C@@H](O)[C@H](C)O2)[C@H](C)[C@@H](O[C@@H]2O[C@H](C)C[C@H](N(C)C)[C@H]2O)[C@](C)(OC)C[C@@H](C)C(=O)[C@H](C)[C@@H](O)[C@]1(C)O	ATCC 35820	-	MIC	-	>8 µg/mL
O=[N+]([O-])c1ccc(Cl)c2cccnc12	H37Rv	-	MIC	-	>100 µg/mL
Cn1cc(NC(=O)Nc2cc(C(=O)Nc3cc(C(=O)Nc4ccc5c(S(=O)(=O)O)cccc5c4S(=O)(=O)O)n(C)c3)n(C)c2)cc1C(=O)Nc1cc(C(=O)Nc2ccc3c(S(=O)(=O)O)cccc3c2S(=O)(=O)O)n(C)c1	H37Rv	BACTEC	inhibition	12.5 µg/mL	0%
Fc1ccccc1CCNCCNCCCc1ccccc1	-	-	MIC	-	25 µM
O=c1[nH]n(-c2ccccc2)c(=O)c2ccccc12	-	-	MIC	-	>200 µg/mL
CCCCCC(C)NCCNCCc1ccc(Cl)cc1Cl	-	-	MIC	-	25 µM
CC[C@H]1OC(=O)[C@H](C)[C@@H](O[C@H]2C[C@@](C)(OC)[C@@H](O)[C@H](C)O2)[C@H](C)[C@@H](O[C@@H]2O[C@H](C)C[C@H](N(C)C)[C@H]2O)[C@](C)(O)C[C@@H](C)CN(C)[C@H](C)[C@@H](O)[C@]1(C)O	Drug-resistant	-	MIC50	-	>8 µg/mL
Cc1ccc2oc(=O)n(-c3ccc(C#N)cc3)c(=O)c2c1	CNCTC MY331/88	-	MIC	-	8 µM
CN1[C@@H]2CC(OC(=O)[C@H](CO)c3ccccc3)C[C@H]1[C@@H]1O[C@@H]12	H37Rv	BACTEC	MIC bound	-	>12.8 µg/mL
CC(C)(COC(=O)C(c1ccccc1)c1ccccc1)CN1CCOCC1.I	H37Rv	-	MIC	-	>100 µg/mL
CCOC(=O)Nc1cc2c(c(N)n1)N=C(c1ccccc1)C(C)N2	H37Rv	-	EC50	-	>12.5 µg/mL
CC(C)(CO)NCCNCCN1CCOCC1	-	-	MIC	-	50 µM
CC(=O)NCCN	H37Rv	-	MIC	-	>100 µg/mL
CO[C@H]1/C=C/O[C@@]2(C)Oc3c(C)c(O)c4c(O)c(c(/C=N/N5CCN(C6CCCC6)CC5)c(O)c4c3C2=O)NC(=O)/C(C)=C\C=C\[C@H](C)[C@H](O)[C@@H](C)[C@@H](O)[C@@H](C)[C@H](OC(C)=O)[C@@H]1C	Isolate 910328 rifampicin-resistant	-	MIC	-	>32 µg/mL
NC(=Nc1ccccc1)Nc1ccccc1	H37Rv	-	MIC	-	>100 µg/mL
Nc1ccc(C(=O)N/N=C/c2ccccc2)c(O)c1	-	-	MIC	-	10 µg/mL
CC(NCCNCCc1ccccc1Cl)c1cccc2ccccc12	-	-	MIC	-	25 µM
OCc1ccccc1Br	H37Rv	-	MIC	-	>100 µg/mL
CN(C)C1=C(Cl)C(=O)C(=O)c2cccnc21	H37Rv	BACTEC	MIC bound	-	>12.5 µg/mL
CCOC(=O)Nc1cc(NCC(=O)c2ccc(-c3ccccc3)cc2)c([N+](=O)[O-])c(N)n1	H37Rv	-	EC50	-	>12.5 µg/mL
COc1ccc(-n2c(=O)oc3ccc([N+](=O)[O-])cc3c2=O)cc1	CNCTC MY331/88	-	MIC	-	125 µM
C1COC(CNCCNCC23CC4CC(CC(C4)C2)C3)C1	-	-	MIC	-	50 µM
Cc1nc2cnc(=Nc3ccccc3)nc-2n(-c2ccccc2)c1C	H37Rv	BACTEC	MIC bound	-	>12.5 µg/mL
O=S(=O)(Nc1ccccc1)c1ccc2nc[nH]c2c1	H37Rv	-	MIC	-	>100 µg/mL
N#Cc1ccc(-n2c(=O)oc3ccc(Br)cc3c2=O)cc1	CNCTC MY331/88	-	MIC	-	4 µM
CN(C)c1ccc(P(=O)(O)c2ccc(N(C)C)cc2)cc1	H37Rv	BACTEC	inhibition	12.5 µg/mL	26%
CCCCCNCCNCCc1ccc(F)cc1	-	-	MIC	-	12.5 µM
O=C(O)c1cccc(O)c1O	H37Rv	-	MIC	-	>100 µg/mL
O=C(Nc1ccc(NC2=NCCN2)cc1)c1cc(C(=O)Nc2ccc(NC3=NCCN3)cc2)cc([N+](=O)[O-])c1	H37Rv	resazurin	MIC bound	-	>6.25 µg/mL
COc1ccc2ccccc2c1Br	H37Rv	-	MIC	-	50 µg/mL
Cc1ccc(Nc2nc(C)c(C(/C=C/c3ccc(/C=C/C(=N\NC(=O)C[n+]4ccccc4)c4sc(Nc5ccc(C)cc5[N+](=O)[O-])nc4C)cc3)=N/NC(=O)C[n+]3ccccc3)s2)c([N+](=O)[O-])c1.[Cl-]	H37Rv	BACTEC	MIC bound	-	>12.5 µg/mL
O=C(O)c1ccc2oc3ccccc3c2c1	H37Rv	-	MIC	-	>100 µg/mL
Nc1cccc(/C=C/C(=O)c2ccccc2O)c1	H37Rv	-	EC50	-	>12.5 µg/mL
Nc1ccc([As](=O)(O)O)cc1[N+](=O)[O-]	H37Rv	-	MIC	-	>100 µg/mL
O=c1c2ccccc2oc2cccc(NCCCN3CCN(CCCNc4cccc5oc6ccccc6c(=O)c45)CC3)c12	H37Rv	BACTEC	MIC bound	-	>12.5 µg/mL
C1=C(CCNCCNCC2CCCO2)CCCC1	-	-	MIC	-	50 µM
COc1cc(C(=O)NCC(=O)NN)cc(OC)c1OC	H37Rv	BACTEC	MIC	-	≥12.5 µg/mL
CCOC(=O)C(Br)C(C)CC	H37Rv	-	MIC	-	>100 µg/mL
O=C1CSc2nc3ccc(Cl)cc3c(=O)n21	H37Rv	BACTEC	MIC bound	-	>12.5 µg/mL
CCOc1ccccc1CNCCNC(c1ccccc1)c1ccccc1	-	-	MIC	-	50 µM
Cc1ccc(Nc2ccc(Nc3ccc(C)cc3S(=O)(=O)O)c3c2C(=O)c2ccccc2C3=O)c(S(=O)(=O)O)c1	H37Rv	-	MIC	-	100 µg/mL
C=C[C@H]1CN2CC[C@H]1C[C@H]2[C@H](O)c1ccnc2ccc(OC)cc12	H37Rv	BACTEC	inhibition	128 µg/mL	54%
Fc1ccccc1CCNCCNCCCc1ccccc1	-	-	MIC	-	25 µM

8 of the rows above, restated:

compound,strain or isolate,method,endpoint,dose,result
C=C[C@H]1CN2CC[C@H]1C[C@H]2[C@H](O)c1ccnc2ccc(OC)cc12,H37Rv,BACTEC,inhibition,128 µg/mL,54%
Nc1cccc(/C=C/C(=O)c2ccccc2O)c1,H37Rv,-,EC50,-,>12.5 µg/mL
O=c1c2ccccc2oc2cccc(NCCCN3CCN(CCCNc4cccc5oc6ccccc6c(=O)c45)CC3)c12,H37Rv,BACTEC,MIC bound,-,>12.5 µg/mL
CC(=O)NNS(=O)(=O)c1ccc(NC(C)=O)cc1,-,-,MIC,-,>200 µg/mL
CCOC(=O)Nc1cc(NC/C(=C\O)c2ccc(OC)c(OC)c2OC)c([N+](=O)[O-])c(N)n1,H37Rv,-,EC50,-,>12.5 µg/mL
CCOC(=O)Nc1cc(NCC(=O)CN(C)c2ccc(C(=O)OC)cc2)c([N+](=O)[O-])c(N)n1,H37Rv,-,inhibition,12.5 µg/mL,0%
NC1CCN(c2nc3c(cc2F)c(=O)c(C(=O)O)cn3-c2ccc(F)cc2F)C1,ATCC 35822,-,MBC,-,>8 µg/mL
O=C(Nc1ccc(NC2=NCCN2)cc1)c1cc(C(=O)Nc2ccc(NC3=NCCN3)cc2)cc([N+](=O)[O-])c1,H37Rv,resazurin,MIC bound,-,>6.25 µg/mL